# HIV-1 5' UTR: effect of mutations on RNA dimer formation

Sequence of the HIV-1 NL4-3 5' RNA, positions 1 to 437, as numbered in the source:
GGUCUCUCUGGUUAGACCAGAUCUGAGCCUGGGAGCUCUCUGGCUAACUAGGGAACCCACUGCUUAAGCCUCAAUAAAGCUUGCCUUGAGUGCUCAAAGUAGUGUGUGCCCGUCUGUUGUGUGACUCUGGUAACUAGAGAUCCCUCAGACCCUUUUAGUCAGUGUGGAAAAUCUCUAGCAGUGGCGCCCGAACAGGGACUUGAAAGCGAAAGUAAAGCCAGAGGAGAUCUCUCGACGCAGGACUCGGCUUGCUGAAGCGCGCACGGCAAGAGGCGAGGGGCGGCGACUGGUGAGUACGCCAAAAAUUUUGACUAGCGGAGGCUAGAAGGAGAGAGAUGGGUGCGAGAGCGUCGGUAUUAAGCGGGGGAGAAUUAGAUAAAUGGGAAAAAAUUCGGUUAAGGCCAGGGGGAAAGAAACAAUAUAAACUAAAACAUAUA

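Randomly mutated transcripts starting with one, two or three G (1G, 2G, 3G), capped or uncapped, were folded for 30 min at 37 °C. High salt was 300 mM KCl and 5 mM MgCl2, low salt 40 mM KCl and 0.1 mM MgCl2; monomer and dimer were parted on a native gel. Mutation frequencies in the two bands give Kdimer.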

Values are log2 Kdimer, the median over the changes at each position: higher means that changes there hinder dimer formation, below 0 that they favour it. Sample: 2G capped high-salt. One numbering serves 1G, 2G and 3G. A position is written with its base where known. Bases beyond 437 are not listed in the source.

position,domain,2G capped high-salt
C40,TAR,0.14
C44,TAR,0.03
A46,TAR,-0.09
G52,TAR,-0.02
G53,TAR,0.15
C56,TAR,0.25
C57,TAR,-0.06
G62,PolyA,0.30
C63,PolyA,0.36
G68,PolyA,0.30
A74,PolyA,-0.06
U75,PolyA,0.03
A76,PolyA,0.01
U81,PolyA,0.03
C85,PolyA,-0.40
A96,PolyA,-0.10
U105,U5,-0.24
G119,none,0.02
U120,none,0.12
U122,none,0.05
A124,none,0.12
G139,PBS,-0.04
U141,PBS,-0.07
C142,PBS,0.07
U145,PBS,0.06
C146,PBS,-0.02
G148,PBS,0.13
U159,PBS,-0.38
A161,PBS,0.10
A171,PBS,0.04
A180,PBS,0.07
C185,PBS,0.04
A191,PBS,-0.13
G196,PBS,0.50
C199,PBS,-0.19
G206,PBS,-0.62
G212,PBS,-0.56
G217,antiPAS,-0.82
C245,SL1,1.24
G247,SL1,-0.65
A263,SL1,0.11
G273,SL1,-0.43
A302,none,0.09
G317,SL3,0.06
G325,SL3,0.32
A330,none,0.15
G340,AUG,-0.15
A345,none,0.16
G353,none,-0.02
A356,none,0.13
U358,none,0.03
G367,none,0.15
A374,none,0.10
U377,none,-0.09
U381,none,0.07
A386,none,0.03
C393,none,0.06
U396,none,-0.04
G409,none,0.05
A419,none,0.03
U427,none,0.08
A428,none,0.07
A429,none,0.10
446,none,0.40
456,none,-0.05
459,none,0.12
460,none,-0.08
468,none,0.39
469,none,0.41
474,none,-0.12
477,none,-0.08
481,none,-0.14
482,none,0.00
485,none,-0.05
491,none,0.09
514,none,0.01

Extract of 8 entries:

position	domain	2G capped high-salt
482	none	0.00
A96	PolyA	-0.10
A386	none	0.03
A191	PBS	-0.13
A330	none	0.15
468	none	0.39
469	none	0.41
G68	PolyA	0.30

Reference: Ye et al. 2022, doi:10.1038/s41594-022-00746-2.